Measured values from several laboratories, pooled; numbers as filed in NIAID ChemDB.

Shared fields: tests in culture; agent: Herpes simplex virus 1

ECn is the concentration giving n% inhibition of infection, replication or growth.

| smiles | read-out | cells | strain or isolate | method | result |
|---|---|---|---|---|---|
| COC(=O)/C=C1/[C@@H](O[Si](C)(C)C(C)(C)C)[C@H](n2cc(C)c(=O)n(C)c2=O)O[C@@H]1CO[Si](C)(C)C(C)(C)C | EC50 | VERO | - | plaque count | >100 µM |
| COc1nc(=O)n([C@H]2C[C@H](O)[C@@H](CO)O2)cc1/C=C/Cl | EC50 | PRK | VMW1837 (TK-) | cytopathic effect | >200 µg/mL |
| Nc1nc(=S)n([C@@H]2O[C@H](CO)[C@@H](O)[C@@H]2O)cc1F | EC50 | MRC-5 | KOS | plaque count | >361 µM |
| Nc1nc2c(ncn2COC(CO)CO)c(=O)[nH]1 | EC50 | MRC-5 | - | plaque count | 0.2 µM |
| CCCCCCCCCCCCCCCCOP(=O)(O)CO[C@H](CO)Cn1ccc(N)nc1=O | EC50 | HFF | HL-3 | plaque count | 0.2 µM |
| Nc1nc2c(ncn2CC(CO)OCP(=O)(O)O)c(=O)[nH]1 | EC50 | WI-38 | KOS phosphonoformic acid-resistant | plaque count | 0.3 µM |
| Nc1ncnc2c1ncn2[C@@H]1C=C(CO)[C@@H](O)[C@H]1O | EC50 | E6SM | B2006 (TK-) | cytopathic effect | 20 µg/mL |
| C=Cc1cc([C@H]2C[C@H](O)[C@@H](CO)O2)c(F)cc1F | EC50 | E6SM | VMW1837 (TK-) | cytopathic effect | >400 µg/mL |
| O=c1[nH]c(=O)n([C@H]2C[C@H](O)[C@@H](CO)O2)cc1F | EC50 | PRK | VMW1837 (TK-) | cytopathic effect | 0.2 µg/mL |
| CC(=O)OCCOCN1C=CC(=O)NS1(=O)=O | EC50 | E6SM | F | - | >400 µg/mL |
| CCCCCCCCCCCCOCCCOP(=O)(O)CO[C@H](CO)Cn1ccc(N)nc1=O | EC50 | HFF | HL-3 | plaque count | 0.4 µM |
| [N-]=[N+]=N[C@@H]1[C@@H](OP(=O)(O)OC[C@H]2O[C@@H](n3cnc4c(N)ncnc43)[C@H](OP(=O)(O)OCCOCn3cnc4c(=O)[nH]c(N)nc43)[C@H]2N=[N+]=[N-])[C@H](n2cnc3c(N)ncnc32)O[C@@H]1CO | EC50 | PRK | McIntyre | cytopathic effect | 2 µg/mL |
| Cc1cn([C@@H]2O[C@H](CO)[C@@H](O)[C@@H]2O)c(=O)[nH]c1=O | EC50 | VERO | KOS-M1 | plaque count | 3.6 µM |
| Nc1nc(=S)n([C@H]2C[C@H](O)[C@@H](CO)O2)cc1Br | EC50 | RPMI8226 | KOS | plaque count | 2.49 µM |
| CCCCCCCC/C=C\CCCCCCCOCCOP1(=O)CO[C@@H](Cn2ccc(N)nc2=O)CO1 | EC50 | HFF | E-377 | plaque count | 0.04 µM |
| Cc1cn([C@@H]2O[C@H](CO[Si](C)(C)C(C)(C)C)C3(O[C@H]3C(N)=O)[C@H]2O[Si](C)(C)C(C)(C)C)c(=O)[nH]c1=O | EC50 | VERO | - | plaque count | >2.7 µM |
| Nc1nc(=S)n([C@@H]2O[C@H](CO)[C@@H](O)[C@@H]2O)cc1I | EC50 | MRC-5 | TK- | plaque count | 6.23 µM |
| Cc1nc(N(C)C(=O)Cc2ccc(-c3ccccn3)cc2)sc1S(N)(=O)=O | EC90 | HEF | 1 (KOS) | plaque count | 0.082 µM |
| OC[C@H]1O[C@@H](c2cc(C#CBr)c(F)cc2F)C[C@@H]1O | EC50 | E6SM | F | cytopathic effect | 9.6 µg/mL |
| CNC(=S)NNC(=O)c1cc(-c2cc(F)cc(F)c2)ccc1O | EC50 | HELA/VERO/HEL | KOS | cytopathic effect | 16 µg/mL |
| C/C(O)=C1\C(=N)N(COCCO)S(=O)(=O)N=C1N | EC50 | E6SM | KOS | - | >400 µg/mL |
| Cc1ccc(C2NC(=O)C3NC(=O)C(c4cc(O)cc(O)c4)NC(=O)C(NC(=O)C(N)Cc4ccc(O)cc4)Cc4c[nH]c5cc(ccc45)-c4cc3cc(c4O)Oc3ccc(cc3)CC(C(=O)NC(C(=O)O)c3ccc(O)c(O)c3)NC2=O)cc1Cl | EC50 | VERO | KOS | plaque count | >25 µg/mL |
| Nc1ccn([C@@H]2O[C@H](CO)[C@@H](O)[C@H]2O)c(=S)n1 | EC50 | MRC-5 | TK- | plaque count | >386 µM |
| O=C1C=CN(COCCO)S(=O)(=O)N1COCCO | EC50 | E6SM | F | - | >400 µg/mL |
| NC1=NC2C(C=CN2CC(CO)CCO)C(=O)N1 | EC50 | - | - | plaque count | 0.01–0.1 µM |
| Cc1ccccc1C(=O)Nc1ccc2nc(NC(C)(C)C(=O)N(C)CCc3ccccn3)oc(=O)c2c1C | EC90 | VERO | - | plaque count | >12.5 µM |
| CC(C)(C)[Si](C)(C)O[C@H]1[C@H](n2ccc(=O)[nH]c2=O)O[C@H](CO)C1(O)C(N=[N+]=[N-])C(N)=O | EC50 | VERO | - | plaque count | >100 µM |
| Nc1nc(=O)n([C@H]2C[C@H](O)[C@@H](CO)O2)cc1/C=C\Cl | EC50 | PRK | F | cytopathic effect | 2 µg/mL |
| Cc1cn([C@H]2C=C[C@@H](OC(C(=O)O)P(=O)(O)O)C2)c(=O)[nH]c1=O | EC50 | HEL | KOS | cytopathic effect | >250 µM |
| OC[C@H]1O[C@@H](c2cc(/C=C/Br)c(F)cc2F)C[C@@H]1O | EC50 | E6SM | F | cytopathic effect | >400 µg/mL |
| CCN(C(=O)N(C)CCc1ccccn1)c1nc2ccc(NC(=O)CCCNC(=O)c3cnccc3N(C)C)c(C)c2c(=O)o1 | EC90 | VERO | - | plaque count | >12.5 µM |
| O=c1[nH]c(=S)n([C@H]2C[C@H](O)[C@@H](CO)O2)cc1Br | EC50 | MRC-5 | TK- | plaque count | >311 µM |
| Cn1cc(C(=O)NCc2ccc(Cl)cc2)c(=O)c2cc(/C=C\CO)cc(F)c21 | EC50 | VERO | KOS | plaque count | 2 µM |
| CCCCCCCCCCCCCCCCCCOC[C@H](COP(=O)(O)CO[C@H](CO)Cn1ccc(N)nc1=O)OCc1ccccc1 | EC50 | HFF | F | plaque count | 0.04 µM |
| O=c1[nH]c(=S)n([C@H]2C[C@H](O)[C@@H](CO)O2)cc1Cl | EC50 | MRC-5 | KOS | plaque count | 14.4 µM |
| Cc1c(NC(=O)OC(C)(C)C)ccc2nc(NC(C)(C)C(=O)NCCc3ccccn3)oc(=O)c12 | EC90 | VERO | - | plaque count | >25 µM |
| CC(C)(C)[Si](C)(C)OC[C@H]1O[C@@H](n2ccc(=O)[nH]c2=O)[C@H](O[Si](C)(C)C(C)(C)C)[C@@]12O[C@H]2C(=O)NN | EC50 | VERO | - | plaque count | 33 µM |
| Nc1nc2c(ncn2/C=C2\CC2(CO)CO)c(=O)[nH]1 | EC50 | HFF | E-377 | plaque count | >380 µM |
| O=C(O)C(O[C@@H]1CC[C@H](n2cc(F)c(=O)[nH]c2=O)C1)P(=O)(O)O | EC50 | HEL | KOS | cytopathic effect | >250 µM |
| Nc1nc2c(ncn2CCC(CO)CO)c(=O)[nH]1 | EC50 | MRC-5 | - | plaque count | 8.7 µM |
| Cc1c(NC(=O)OC(C)(C)C)ccc2nc(N3CCC[C@H]3C(=O)NCCc3ccccn3)oc(=O)c12 | EC90 | VERO | - | plaque count | >12.5 µM |
| O=C(NNC(=S)Nc1ccccc1)c1cc(-c2cc(F)cc(F)c2)ccc1O | EC50 | HELA/VERO/HEL | KOS | cytopathic effect | 9.6 µg/mL |
| Cc1cn([C@H]2C[C@H](O[Si]34OCCN(CCO3)CCO4)[C@@H](CO)O2)c(=O)[nH]c1=O | EC50 | HFF | - | cytopathic effect | >100 µg/mL |
| Cn1cc(C(=O)NCc2ccc(Cl)cc2)c(=O)c2cc(CN3CCOCC3)ccc21 | EC50 | VERO | DJL | plaque count | 2.6 µM |
| COC(=O)/C=C1/[C@@H](O[Si](C)(C)C(C)(C)C)[C@H](n2cc(C)c(=O)[nH]c2=O)O[C@@H]1CO[Si](C)(C)C(C)(C)C | EC50 | VERO | - | plaque count | >35 µM |
| COCC(=O)Nc1ccc2nc(NC(C)(C)C(=O)N(C)CCc3ccccn3)oc(=O)c2c1C | EC90 | VERO | - | plaque count | >12.5 µM |
| Nc1nc2c(ncn2CCC(CO)CO)c(=O)[nH]1 | EC50 | - | OST (TK-) | - | 231 µg/mL |
| Cc1c(NC(=O)c2ccccc2C(F)(F)F)ccc2nc(NC(C)(C)C(=O)N(C)CCc3ccccn3)oc(=O)c12 | EC90 | VERO | - | plaque count | >12.5 µM |
| Cc1cn([C@@H]2O[C@H](COP(=O)(O)O)[C@@H](O)[C@@H]2O)c(=O)[nH]c1=O | EC50 | HELF | MP | cytopathic effect | 0.66 µg/mL |
| CC(=O)OCCOCN1C=C(C#N)C(N)=NS1(=O)=O | EC50 | E6SM | McIntyre | - | >400 µg/mL |
| Nc1nc(=S)n([C@@H]2O[C@H](CO)[C@@H](O)[C@@H]2O)cc1Br | EC50 | RPMI8226 | KOS | plaque count | 139 µM |
| Nc1nc2c(ncn2[C@@H]2C[C@H](CO)[C@H]2CO)c(=O)[nH]1 | EC50 | - | OST (TK-) | - | 18 µg/mL |
| CC(C)(C)[Si](C)(C)OC[C@H]1O[C@@H](n2ccc(=O)[nH]c2=O)[C@H](O[Si](C)(C)C(C)(C)C)[C@@]12O[C@H]2C(N)=O | EC50 | VERO | - | plaque count | >8 µM |
| Nc1nc(=S)n([C@H]2C[C@H](O)[C@@H](CO)O2)cc1Cl | EC50 | RPMI8226 | KOS | plaque count | 22.1 µM |
| CCCCCCCCCCCCOCCCOP1(=O)CO[C@@H](Cn2ccc(N)nc2=O)CO1 | EC50 | HFF | HL-3 | plaque count | >1 µM |
| NC1=NCCN1CC(=O)O | EC50 | VERO | F | cytopathic effect | 8600 µM |
| Nc1nc2c(ncn2COC(CO)CO)c(=O)[nH]1 | EC50 | - | - | plaque count | 0.001–0.01 µM |
| NC1=CC(N)=NS(=O)(=O)N1COCCO | EC50 | E6SM | B206 (TK-) | - | >400 µg/mL |
| Cc1c(NC(=O)OC(C)(C)C)ccc2nc(N3CCCC[C@H]3C(=O)NCc3ccccn3)oc(=O)c12 | EC90 | VERO | - | plaque count | >12.5 µM |

For reference, 7 entries again:

smiles | read-out | cells | strain or isolate | method | result
Cc1nc(N(C)C(=O)Cc2ccc(-c3ccccn3)cc2)sc1S(N)(=O)=O | EC90 | HEF | 1 (KOS) | plaque count | 0.082 µM
NC1=CC(N)=NS(=O)(=O)N1COCCO | EC50 | E6SM | B206 (TK-) | - | >400 µg/mL
CCN(C(=O)N(C)CCc1ccccn1)c1nc2ccc(NC(=O)CCCNC(=O)c3cnccc3N(C)C)c(C)c2c(=O)o1 | EC90 | VERO | - | plaque count | >12.5 µM
[N-]=[N+]=N[C@@H]1[C@@H](OP(=O)(O)OC[C@H]2O[C@@H](n3cnc4c(N)ncnc43)[C@H](OP(=O)(O)OCCOCn3cnc4c(=O)[nH]c(N)nc43)[C@H]2N=[N+]=[N-])[C@H](n2cnc3c(N)ncnc32)O[C@@H]1CO | EC50 | PRK | McIntyre | cytopathic effect | 2 µg/mL
Nc1nc(=S)n([C@@H]2O[C@H](CO)[C@@H](O)[C@@H]2O)cc1Br | EC50 | RPMI8226 | KOS | plaque count | 139 µM
Nc1nc2c(ncn2CCC(CO)CO)c(=O)[nH]1 | EC50 | - | OST (TK-) | - | 231 µg/mL
COC(=O)/C=C1/[C@@H](O[Si](C)(C)C(C)(C)C)[C@H](n2cc(C)c(=O)[nH]c2=O)O[C@@H]1CO[Si](C)(C)C(C)(C)C | EC50 | VERO | - | plaque count | >35 µM

Lines come from different laboratories, so protocols vary. An empty or dashed field is not shown. a–b is a range or a potency band.